The values that follow come from publication PMC11196219.

Sequences of proteins named here, by UniProt entry; tags and fusion partners are left off. Residues count along the entry.
UniProt P0C6X5, 2940-3242 limits assumed: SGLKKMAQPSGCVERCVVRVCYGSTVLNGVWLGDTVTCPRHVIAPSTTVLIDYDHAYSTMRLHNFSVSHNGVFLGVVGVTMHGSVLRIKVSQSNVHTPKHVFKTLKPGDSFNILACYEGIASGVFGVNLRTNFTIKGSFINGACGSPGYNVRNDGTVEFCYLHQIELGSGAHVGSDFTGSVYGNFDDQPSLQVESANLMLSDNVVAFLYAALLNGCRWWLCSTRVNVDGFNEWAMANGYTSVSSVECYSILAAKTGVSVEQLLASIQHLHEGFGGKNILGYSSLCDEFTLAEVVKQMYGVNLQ

Targets include HKU9-Mpro (Bat coronavirus HKU9, UniProt P0C6W5); MHV-Mpro (Murine coronavirus, UniProt P0C6X9); NL63-Mpro (Human coronavirus NL63, UniProt P0C6X5).
Assay in all cases: Mpro-On assay
The target of another assay is poliovirus protease (Poliovirus type 1, UniProt P03300). To be noted: polio protease.

As to `CC(C)(C)[C@H](NC(=O)C(F)(F)F)C(=O)N1C[C@H]2[C@@H]([C@H]1C(=O)N[C@H](C#N)C[C@@H]1CCNC1=O)C2(C)C`, the “inhibitor potency (dsRed signal), in words” value is “moderate effect” on HKU9-Mpro, “no effect” at MHV-Mpro, “mild effect” on NL63-Mpro and “no effect” on poliovirus protease.
As for `Cn1cnc(Cn2c(=O)[nH]/c(=N\c3cc4cn(C)nc4cc3Cl)n(Cc3cc(F)c(F)cc3F)c2=O)n1`, the “inhibitor potency (dsRed signal), in words” value against HKU9-Mpro is “less effective”; on MHV-Mpro, “not effective”; against NL63-Mpro, “not effective”; at poliovirus protease, “not effective”.
